Values from PubChem BioAssay AID1259414 (Drosophila RNAi Screening Center, 2018).
Aim: 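Host factors increasing or decreasing Wolbachia levels in cultured fly cells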 (primary screen). Cell system: Drosophila JW18 cells infected with Wolbachia. Reagents: long dsRNA against Drosophila genes, 0.25 µg dsRNA per well of a 384-well plate. Duration: 5 days. Treatment: cells persistently infected with Wolbachia before knock-down; no added drug. Detection: 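Automated imaging of bacterial rRNA staining divided by host cell count, reported as plate-normalised robust z-score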. Reading the numbers: Wolbachia per cell robust z: higher = more Wolbachia per host cell than the plate typical. Active means: 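Hit when robust z is 1.5 or more, or -1.5 or less, in at least two of three replicates; excludes dsRNAs with several or no targets, genes not expressed in JW18 and well A1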.
The deposit covers about 24,000 reagents; shown is an unselected part of those with a known target gene and a result. In the full data, about 1,210 (5%) are marked active. 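Inactive calls also include excluded dsRNAs with several or no targets, genes unexpressed in JW18, and well A1, regardless of score.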 Reagents against one gene are numbered here. Names joined by + are all predicted targets of the reagent.

After knock-down of CG17234, the record shows Wolbachia per cell robust z, rep 1 = -0.0619; Wolbachia per cell robust z, rep 2 = 1.06; Wolbachia per cell robust z, rep 3 = 0.844; inactive. After knock-down of Dhc16F, the screen gave Wolbachia per cell robust z, rep 1 = 0.633; Wolbachia per cell robust z, rep 2 = 0.616; Wolbachia per cell robust z, rep 3 = 0.129; inactive. Silencing of CG13154 gave: Wolbachia per cell robust z, rep 1 = 1.32; Wolbachia per cell robust z, rep 2 = 0.676; Wolbachia per cell robust z, rep 3 = 0.596; inactive. Silencing of Nle came out at: Wolbachia per cell robust z, rep 1 = 0.0505; Wolbachia per cell robust z, rep 2 = -0.519; Wolbachia per cell robust z, rep 3 = 6.06; inactive. CG13321 #1 showed Wolbachia per cell robust z, rep 1 = -7.11; Wolbachia per cell robust z, rep 2 = -3.08; Wolbachia per cell robust z, rep 3 = -0.226; inactive. With knock-down of CG13321 #2, the record shows Wolbachia per cell robust z, rep 1 = 0.275; Wolbachia per cell robust z, rep 2 = -0.151; Wolbachia per cell robust z, rep 3 = -1.79; inactive.

With knock-down of CG5180, the screen gave Wolbachia per cell robust z, rep 1 = 0.197; Wolbachia per cell robust z, rep 2 = 0.538; Wolbachia per cell robust z, rep 3 = 0.057; inactive. After knock-down of Toll-7 #1, the screen gave Wolbachia per cell robust z, rep 1 = 0.526; Wolbachia per cell robust z, rep 2 = 0.172; Wolbachia per cell robust z, rep 3 = 1.21; inactive. Against Toll-7 #2 the deposit lists Wolbachia per cell robust z, rep 1 = 0.7; Wolbachia per cell robust z, rep 2 = 0.313; Wolbachia per cell robust z, rep 3 = 1.17; inactive.

Individual results from above.
Toll-7 #1, Wolbachia per cell robust z, rep 1 → 0.526
Toll-7 #2, Wolbachia per cell robust z, rep 3 → 1.17

Continued:
With knock-down of CG33169 #1, the screen gave Wolbachia per cell robust z, rep 1 = -0.437; Wolbachia per cell robust z, rep 2 = -0.498; Wolbachia per cell robust z, rep 3 = 0.0272; inactive. Depletion of CG33169 #2 came out at: Wolbachia per cell robust z, rep 1 = -5.33; Wolbachia per cell robust z, rep 2 = 0.249; Wolbachia per cell robust z, rep 3 = 0.121; inactive. Adk1 showed Wolbachia per cell robust z, rep 1 = 0.161; Wolbachia per cell robust z, rep 2 = 1.83; Wolbachia per cell robust z, rep 3 = 0.957; inactive. mRpL33 scored Wolbachia per cell robust z, rep 1 = -0.333; Wolbachia per cell robust z, rep 2 = 0.472; Wolbachia per cell robust z, rep 3 = -0.181; inactive. After knock-down of xmas-1 (retired record) #1, the record shows Wolbachia per cell robust z, rep 1 = -0.524; Wolbachia per cell robust z, rep 2 = -0.42; Wolbachia per cell robust z, rep 3 = -0.351; inactive. xmas-1 (retired record) #2 scored Wolbachia per cell robust z, rep 1 = 0.342; Wolbachia per cell robust z, rep 2 = -1.01; Wolbachia per cell robust z, rep 3 = -0.15; inactive.

Depletion of obst-E #1 came out at: Wolbachia per cell robust z, rep 1 = -0.704; Wolbachia per cell robust z, rep 2 = 0.551; Wolbachia per cell robust z, rep 3 = -0.487; inactive. obst-E #2 showed Wolbachia per cell robust z, rep 1 = 0.238; Wolbachia per cell robust z, rep 2 = -1.91; Wolbachia per cell robust z, rep 3 = -0.943; inactive. CG31917 + Tfb5 #1 showed Wolbachia per cell robust z, rep 1 = -0.189; Wolbachia per cell robust z, rep 2 = -3.25; Wolbachia per cell robust z, rep 3 = 1.26; inactive. Knock-down of CG31917 + Tfb5 #2 resulted in: Wolbachia per cell robust z, rep 1 = -1.67; Wolbachia per cell robust z, rep 2 = -0.952; Wolbachia per cell robust z, rep 3 = -0.953; inactive. Against CG42232 #1, the entry reads Wolbachia per cell robust z, rep 1 = -0.643; Wolbachia per cell robust z, rep 2 = -0.559; Wolbachia per cell robust z, rep 3 = 0.738; inactive. Knock-down of CG42232 #2 came out at: Wolbachia per cell robust z, rep 1 = 0.419; Wolbachia per cell robust z, rep 2 = 0.896; Wolbachia per cell robust z, rep 3 = -0.437; inactive.

After knock-down of CG42232 #3, the record shows Wolbachia per cell robust z, rep 1 = -0.601; Wolbachia per cell robust z, rep 2 = 1.02; Wolbachia per cell robust z, rep 3 = -4.44; inactive. With knock-down of dpr10 #1, the screen gave Wolbachia per cell robust z, rep 1 = 0.579; Wolbachia per cell robust z, rep 2 = -0.338; Wolbachia per cell robust z, rep 3 = 1.84; inactive. dpr10 #2 showed Wolbachia per cell robust z, rep 1 = -0.754; Wolbachia per cell robust z, rep 2 = 0.796; Wolbachia per cell robust z, rep 3 = 0.312; inactive. Silencing of dpr10 #3 resulted in: Wolbachia per cell robust z, rep 1 = 0.225; Wolbachia per cell robust z, rep 2 = 0.0226; Wolbachia per cell robust z, rep 3 = -0.436; inactive.
